Human monoclonal antibodies against the spike receptor-binding domain (heavy:light variable regions). IC50 against pseudoviruses bearing the spike of naturally observed variants; lower = stronger; >10 µg/ml means not reached at the top dose. No active / inactive call. The stated detection limit is 0.0005 µg/ml; values near or below 0.001 µg/ml lie at the floor of the assay.
Tests used:
Test in all cases: pseudovirus neutralization IC50; higher = weaker neutralization
[1] = biological target: SARS-CoV-2 Omicron BA.1 spike pseudovirus
Method: (§1)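 Single-round VSV luciferase pseudovirus mixed with antibody dilutions for 1 h and put on Huh-7 cells for about a day; IC50 from the dose curve.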

[2] = biological target: SARS-CoV-2 Omicron BA.2 spike pseudovirus
Method: as §1

[3] = biological target: SARS-CoV-2 Omicron BA.2.75 spike pseudovirus
Method: as §1

[4] = biological target: SARS-CoV-2 Omicron BA.5 spike pseudovirus
Method: as §1

[5] = biological target: SARS-CoV-2 Omicron BQ.1.1 spike pseudovirus
Method: as §1

[6] = biological target: SARS-CoV-2 Omicron XBB spike pseudovirus
Method: as §1

[7] = biological target: SARS-CoV-2 early D614G spike pseudovirus
Method: as §1

| Binder | pseudovirus neutralization IC50 [1] [µg/mL] | pseudovirus neutralization IC50 [2] [µg/mL] | pseudovirus neutralization IC50 [3] [µg/mL] | pseudovirus neutralization IC50 [4] [µg/mL] | pseudovirus neutralization IC50 [5] [µg/mL] | pseudovirus neutralization IC50 [6] [µg/mL] | pseudovirus neutralization IC50 [7] [µg/mL] |
| --- | --- | --- | --- | --- | --- | --- | --- |
| BD55-1251 (protein) chain 1: EVQLVQSGAEVKKPGESLKISCQGSRSSFTNYWIGWVRQMPGKGLEWMGVIYPDDSDTRYSPSFQGQVTISADKSISVAYLQWSSLKASDTAMYYCARRRHITGFYHFDSWGQGTLVIVSS chain 2: DIQMTQSPSSLSASIGDRVSITCRASQNIGDYVNWYQQKPGKAPQVLIYAASTLQSGVPSRFSGSGSGTDFTLTISSLQPEDFATYYCQQTYTVLETFGQGTKVDIK | 0.977 | 1.69 | 2.26 | 1.57 | > 10 | > 10 | 1.5 |
| BD55-6531 (protein) chain 1: QVQLVQSGAEVKKPGSSVKVSCTASGDTFSSYSITWVRLAPGQGLEWMGRIIPKLGITNYAQKFQGRVTIIADESTNTAYMELSSLRSEDTALYYCARDPRPLIPADRNHGMDVWGQGTTVTVSS chain 2: DTVMTQSPLSLPVTPGEPASISCRSSQSLLQSNGYKYLDWYLQKSGQSPQLLIYLGSARASGVPDRFSGSGSGTDFTLNISRVEAEDVGVYYCMQALQIPFTFGQGTKLEIK | 0.0815 |  |  |  | 1.54 | > 10 |  |
| BD55-1249 (protein) chain 1: EVQLLESGGGLVQPGGSLRLSCVVSGFTFGSYAMSWVRQAPGKGLEWVSAITASGVSTYYAASVRGRFSISRDNSKNTLYLQMNGLRAEDTAVYYCAKDWASGPTDYFDYWGQGTLVTVSS chain 2: DIQMTQSPSSLSASVGDRVTITCRSSQSISTYLNWYQQKPGKAPNLLIYAASRLQSGVPSRFSGSGSGTDFTLTISSLQPEDFATYYCQQSYNTPPWTFGQGTKVEVK | > 10 | > 10 | > 10 | > 10 | > 10 | > 10 | 0.0152 |
| BD55-6523 (protein) chain 1: QVQLVQSGAEVKKPGASVKVSCKASGHTFSNYDINWVRQATGQGPEWMGWMNPKSGDTGYAHKFQGRVSMTRNTSISTAYMELSSLRSEDTAVYYCACGVETASLYYYYYAMDVWGQGTTVTVSS chain 2: IQMTQSPSFLSASVGDRVTITCRAGQNINTNLNWYQQKPGKAPNLLIYEASSLHSGVPSRFSGSGSGTDFSLTINSLQPEDFATYFCQQSYSTPSTFGQGTKLEIK | > 10 | > 10 | > 10 | > 10 | > 10 | > 10 | > 10 |
| BD55-6534 (protein) chain 1: EVQLVQSGAEVKKPGESLKISCKGSENSFTIHWIGWVRQLPGKGLEWMGVIFPGDSDTRYSPSFQGQVTISADKSISTAYLQWSSLKASDTAMYYCASRTWGQYSYGMDIWGQGTSVTVS chain 2: DIQMTQSPSSVSASVGDRVTITCRASQGIGNWLAWYQQKPGKAPELLIYAASTLQSGVPSRFSGSGSGTDFTLTISSLQPEDFAAYYCQQANSFPPTFGQGTRLEIK | > 10 | > 10 | > 10 | > 10 | > 10 | > 10 | > 10 |
| BD55-6507 (protein) chain 1: QVQLVQSGAEVKKPGASVKVSCKAFGYTFNSNYIYWVRQAPGQGLEWMGVIDPSAGATSYAQKFQGRVTMTRDTSTNTVYMELSSLRSEDTAVYYCARDLGDDVSRGYSGYDFLDLYAMDVWGQGTTVTVS chain 2: DIVMTQSPDSLAVSLGERATINCKSSQSILYTSNNKNYLAWYQQKPGQPPKLLIYWASTRESGVPDRFSGSGSGTDFTLTISSLQAEDVAVFYCQQHYSPPPTFGQGTRLEIK | 0.0545 | > 10 | > 10 | > 10 | > 10 | > 10 | 0.0338 |
| BD55-6469 (protein) chain 1: QVHLVQSGAEVKKPGASVKVSCKASGDTFPTYDFNWVRQAPGQGLEWMGWMSPKTGDTGYAHKFQGRVIMTRDTSRRTAYMELTSLRSEDTAVYYCARGVRTLPAAYNWFDPWGQGTLVTVSS chain 2: DIQMTQSPSSLSASVGDKVTITCRASQSIGDYLHWYQHKPGKAPRLLVYAASNLQSGVPSRFSGLGSGTDFTLTISSLQPEDFATYYCQQSYSSSYTFGQGTKLEIK | > 10 | > 10 | > 10 | > 10 | > 10 | > 10 | > 10 |
| BD55-6520 (protein) chain 1: QIILTESGPTLVKPTQTLTLTCTFSGFSLTTTEVGVGWIRQPPGKPLEWLALIYWDDAKRYSPSLKNRLTITKDTSKNQVVLTMTNMDPVDTGTYYCAHWYYDISTGELFYMDVWGKGTTVTVSS chain 2: DIVLTQTPLSSSVTLGQPASISCRSSQSLAHSDGNTYLSWLQQKPGQPPRLLIYEISNRFSGVPDRFSGSGSGTDFTLKISRVEIEDVGVYYCMQTTQFPQEMYTFGQGTKLEIK | > 10 | > 10 | > 10 | > 10 | > 10 | > 10 | 0.0278 |
| BD55-6492 (protein) chain 1: QVQLVQSGADVKKPGASVRVSCKASGYTFIDYYIHWVRQAPGEGLEWIGWINPISGGTNFAQKFQGRVTMTRDTSTSTAYMDLTRLRSDDTAVYYCARGWDTRSTFYEHWFDPWGQGTLVTVSS chain 2: DIVMTQSPASLAVSLGERATINCKSSQSVLYSSTNKNYLAWYQQKPGQPPKLLIYWASTRESGVPDRFSGSGSGTDFTLTISRLQAEDVAIYYCQQYYSSPLTFGGGTNVEIK | > 10 | > 10 | > 10 | > 10 | > 10 | > 10 | 4.23 |
| BD55-6518 (protein) chain 1: QVQLVESGGGVVQPGRSLRLSCAASGFIFSNYGMHWVRQAPGKGLEWVALIWFDGTNQYFGDSVKGRFTISRDNSKNTLYLQMNSLRTEDTAVYYCARDSQCRGGNCYFDYNWFDAWGQGTLVTVSS chain 2: VLTQSPATLSLSPGERATLSCRASQSISFHLAWYQQKPGQAPRLLIYDATKRATDIPARFSGSGSGTDFSLTISSLEPEDFAVYYCQQRYTWPPAYTFGQGTKLEIK | > 10 | > 10 | > 10 | > 10 | > 10 | > 10 | 4.36 |
| BD55-1257 (protein) chain 1: EVQLVESGGGLVQPGGSLRLSCSASGFIFSTYAMQWVRQAPGKGLEYVSGISSDGGITDYGDSVKDRFTISRDNSKNRVYLQMTSLRGEDTAVYYCVKDLGDITTVTTFDYWGQGTLVTVSS chain 2: DIQMTQSPSSLSTSVGDRVTITCRASQSISKYLNWYQQKPGKAPKLLIYSASTLHSGVPSRFSGSGSGTDFTLTITGLQPEDFATYYCQQSYTAPLTFGGGTKVELK | > 10 | > 10 | > 10 | > 10 | > 10 | > 10 | > 10 |
| BD55-6479 (protein) chain 1: QEQLQQWGAGLLKPAETLSLTCALYGGSFSVYYWTWIRQSPGKGLEWIGEINQSGTTTYNPSLKSRVTISVDTSKKQFSLKLNSVTAADTAVYYCARESSAAVIDNWGQGTLVTVSS chain 2: QSALTQPASVSGSPGQSITISCTGSSSDIGRFNYVSWYQLHPGKAPKLMIYDVNKRPSGVSDRFSGSKSGNTASLTLSGLQTDDEADYYCSSYTSSSTYLLFGGGTKLTVL | > 10 | > 10 | > 10 | > 10 | > 10 | > 10 | 1.43 |
| BD55-6486 (protein) chain 1: QVQLVQSGAEAKKPGSSVKVSCKASRGTFSTYTFTWVRQAPGQGLEWMGRILPIVGVTDLAQKFQGRVTITADKSTNTAYMELSSLRSEDTAVYFCARENPFPTRLYSGYDFLDLGAFDIWGQGTVVTVSS chain 2: EIVLTQSPGTLSLSPGERATLSCRASQSVGSSLLAWYQQRPGQAPRLLIYGASSRATGIPDRFSGSGSGTDFTLTISRLEPEDFAVYYCHQYGGSPYTFGQGTKLEMK | 0.735 | > 10 | > 10 | > 10 | > 10 | > 10 | 0.0109 |

From the supplement of paper PMC9931576
